Reference: article PMC7507806 (ACS Pharmacology & Translational Science, 2020)

Tested on: Vero E6 cells
Details: read-out: Vero E6 cytotoxicity CC50; Table 2 quenching compounds

Compound | CC50 [µM]
CCCCCCCCCCCCCCCc1cccc(O)c1C(=O)O [anacardic acid] | 14.1
CCCCCCCc1ccc(CCc2cccc(O)c2C(=O)O)cc1 [MG-149] | 14.1
